Data source: PubChem BioAssay AID1259414 (Drosophila RNAi Screening Center, 2018)
The screen tested about 24,000 reagents; below is a random part of those that have a named target and a result. In the full data, about 1,210 (5%) are marked active. 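Inactive calls also include excluded dsRNAs with several or no targets, genes unexpressed in JW18, and well A1, regardless of score.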 Names joined by + are all predicted targets of the reagent.

Purpose: 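Host factors increasing or decreasing Wolbachia levels in cultured fly cells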 (primary screen)
Cells: Drosophila JW18 cells infected with Wolbachia
Reagent: long dsRNA against Drosophila genes, 0.25 µg dsRNA per well of a 384-well plate
Timing: 5 days
Treatment: cells persistently infected with Wolbachia before knock-down; no added drug
Measurement: 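Automated imaging of bacterial rRNA staining divided by host cell count, reported as plate-normalised robust z-score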
Scale: Wolbachia per cell robust z: higher = more Wolbachia per host cell than the plate typical
Active means: 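Hit when robust z is 1.5 or more, or -1.5 or less, in at least two of three replicates; excludes dsRNAs with several or no targets, genes not expressed in JW18 and well A1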

target	dsRNA	Wolbachia per cell robust z, rep 1	Wolbachia per cell robust z, rep 2	Wolbachia per cell robust z, rep 3	Call
CG15429	DRSC00444	-0.0941	-0.495	-1.18	inactive
CG15429	DRSC26501	-0.308	-0.69	-0.452	inactive
CG18563	DRSC02676	-1.63	-2.96	-0.154	inactive
Nep2 (Neprilysin 2)	DRSC12126	0.298	-2.22	0.551	inactive
Nep2 (Neprilysin 2)	DRSC21398	0.258	-0.0762	-1.02	inactive
MESK2 + CG10494	DRSC04259	-6.17	-0.271	0.0273	inactive
PLCXD	DRSC02427	0.822	-1.3	-0.6	inactive
CG18870	DRSC04313	0.544	0.159	-0.0736	inactive
Rbm13 (RNA-binding motif protein 13)	DRSC17749	-5.93	0.0668	0.442	inactive
Rbm13 (RNA-binding motif protein 13)	DRSC25416	-8.62	-0.185	0.381	inactive
Rab40	DRSC19820	0.567	-2.47	0.88	inactive
CG12784	DRSC14539	-1.17	-0.196	-0.392	inactive
arm (armadillo)	DRSC18738	1.35	0.39	-8.33	inactive
arm (armadillo)	DRSC39139	0.548	1.41	1.52	inactive
CG33143	DRSC04151	1.35	1.04	1.1	inactive
CG33143	DRSC04454	0.921	1.04	0.558	inactive
CG33143	DRSC27587	0.534	0.0972	-0.27	inactive
GABPI (beta4GalNAcTB pilot)	DRSC00494	-1.1	-1.39	1.19	inactive
GABPI (beta4GalNAcTB pilot)	DRSC27495	0.733	0.0681	1	inactive
Osi9 (Osiris 9)	DRSC12278	0.292	-0.0742	-0.541	inactive
Osi9 (Osiris 9)	DRSC28928	-0.0412	-0.0599	-0.477	inactive
Ubx (Ultrabithorax)	DRSC16891	-2.61	-0.507	0.484	inactive
Ubx (Ultrabithorax)	DRSC23812	-0.136	1.42	-0.331	inactive
Ubx (Ultrabithorax)	DRSC37677	-0.0502	-2.14	-0.52	inactive
CG34454	DRSC37913	-0.111	-0.335	-1.94	inactive
homer	DRSC03547	0.563	-0.0304	0.482	inactive
homer	DRSC29162	-0.777	-2.39	-1.26	inactive
Pomp	DRSC03201	2.17	1.67	2.31	active
Pomp	DRSC27581	-0.0754	-1.36	-1.11	inactive
Pld3 (Phospholipase D family member 3)	DRSC03167	-0.592	0.477	-2.44	inactive
CG9072	DRSC20147	-0.79	-0.432	-4.72	inactive
asRNA:CR43478 + CG14662	DRSC12248	0.987	-2.09	0.668	inactive
Skp2 (S-phase kinase-associated protein 2)	DRSC12329	0.571	0.578	-0.968	inactive
Skp2 (S-phase kinase-associated protein 2)	DRSC28203	0.494	0.921	1.56	inactive
ATPsynbetaL (ATP synthase, beta subunit-like)	DRSC10503	0.916	-0.336	0.252	inactive
ATPsynbetaL (ATP synthase, beta subunit-like)	DRSC24354	-0.836	1.24	-1.19	inactive
CG16721	DRSC18113	1.49	0.704	1.13	inactive
Ssb-c31a (Single stranded-binding protein c31A)	DRSC03443	-0.314	-1.28	-0.203	inactive
Ssb-c31a (Single stranded-binding protein c31A)	DRSC28004	0.0424	0.215	1.13	inactive

The list goes on (6 carried over from the part before).
target	dsRNA	Wolbachia per cell robust z, rep 1	Wolbachia per cell robust z, rep 2	Wolbachia per cell robust z, rep 3	Call
Skp2 (S-phase kinase-associated protein 2)	DRSC28203	0.494	0.921	1.56	inactive
ATPsynbetaL (ATP synthase, beta subunit-like)	DRSC10503	0.916	-0.336	0.252	inactive
ATPsynbetaL (ATP synthase, beta subunit-like)	DRSC24354	-0.836	1.24	-1.19	inactive
CG16721	DRSC18113	1.49	0.704	1.13	inactive
Ssb-c31a (Single stranded-binding protein c31A)	DRSC03443	-0.314	-1.28	-0.203	inactive
Ssb-c31a (Single stranded-binding protein c31A)	DRSC28004	0.0424	0.215	1.13	inactive
sicily (severe impairment of CI with lengthened youth)	DRSC19704	-1.82	-0.943	0.191	inactive
Syngr (Synaptogyrin)	DRSC06003	-1.58	0.143	-0.63	inactive
CG44434 + CG44433 + CG44435	DRSC06517	0.734	0.596	-1.68	inactive
CG44434 + CG44433 + CG44435	DRSC06518	-4.48	-0.0831	0.371	inactive
CG7276	DRSC10797	-0.651	0.0831	-1.29	inactive
CG34033	DRSC38882	-0.297	-1.08	1.56	inactive
mute + Ufm1	DRSC26798	1.02	-0.237	0.0972	inactive
Obp56c (Odorant-binding protein 56c)	DRSC06552	-5.35	-4.48	-3.08	inactive
Obp56c (Odorant-binding protein 56c)	DRSC22325	0.896	0.697	0.806	inactive
Obp56c (Odorant-binding protein 56c)	DRSC28276	-0.304	-0.182	-0.322	inactive
CG30062	DRSC21737	0.218	-0.897	0.254	inactive
dysf (dysfusion)	DRSC14529	0.642	-1.49	-2.5	inactive
dysf (dysfusion)	DRSC14895	-2.65	0.381	0.338	inactive
dysf (dysfusion)	DRSC14896	0.442	0.87	2.06	inactive
REPTOR (Repressed by TOR)	DRSC14626	-4.86	2.78	0.341	inactive
REPTOR (Repressed by TOR)	DRSC24359	0.394	1.55	-0.0472	inactive
Ice1 (Interacts with the C terminus of ELL 1)	DRSC04191	1.74	1.39	1.53	active
Ice1 (Interacts with the C terminus of ELL 1)	DRSC23585	0.178	-0.737	-0.102	inactive
Tim9a	DRSC19753	0.0812	-2.14	-5.26	active
wdn (wings down)	DRSC17095	-8.68	0.199	0.307	inactive
wdn (wings down)	DRSC29088	1.49	0.84	1.27	inactive
CG15027	DRSC19608	-4.4	-1.81	-0.0837	active
ImpE1 (Ecdysone-inducible gene E1)	DRSC11195	-3.42	0.315	-0.282	inactive
ImpE1 (Ecdysone-inducible gene E1)	DRSC11196	-0.275	-0.361	-1.35	inactive
ImpE1 (Ecdysone-inducible gene E1)	DRSC24590	-2.36	-2.25	-1.64	inactive
CG45071 + Ctps	DRSC09342	-1.2	-0.232	-2.05	inactive
CG45071 + Ctps	DRSC10729	1.01	0.893	1.24	inactive
CG12920	DRSC06234	0.105	0.625	-1.54	inactive
CG13018	DRSC06274	1.05	1.42	-2.54	inactive
